The structures appear in SMILES notation. Only a part is listed here, and it is no random draw. Active and inactive are the calls of the source. Cut-off read from the data, not from the text of the source: active = inhibition above about 25%; inactive = the rest.

The target of the test is Major prion protein (Homo sapiens) (UniProt P04156). The test can be described thus: cell surface PrPC inhibition, TR-FRET confirmation, confirmation, cell-based, TR-FRET (AID 743200). The following applies: cell surface PrPC level, at 13.8 µM, hits give high values. A general note: Time-resolved FRET reads energy transfer from a long-lived donor to a nearby acceptor.
Consider `Cc1ccc2nc3c(c(C)c2c1)CC(C(Cl)Cl)S3` (configuration not stated), for which the inhibition (usually the change of the read-out against control, counted positive when it falls) was active: 37.2%. The same measure for `Cc1c2c(nc3ccccc13)SC(C(Cl)Cl)C2` (configuration not stated): active: 44.7%.

Source of the values: PubChem BioAssay AID743200 (The Scripps Research Institute Molecular Screening Center, 2013).
